Earlier results, collected in patent publication US11082386B2, “2′-fluoro-6′-methylene carbocyclic nucleosides and methods of treating viral infections” (UNIVERSITY OF GEORGIA RESEARCH FOUNDATION, INC., priority 2009, dated 2021).

Test system: HBV
Settings: cited from earlier work; for probability of resistance: patients with pre-existing lamivudine-resistant mutations

Compound | rate of resistance (1 year therapy, HBeAg-postive patients) | rate of resistance (2 years) | rate of resistance (5 years treatment) | probability of resistance (1 year) | probability of resistance (5 years)
Cc1cn([C@@H]2C[C@@H](O)[C@H](CO)O2)c(=O)[nH]c1=O [Telbivudine, telbivudine] | around 5% | 22% |  |  | 
Nc1ncnc2c1ncn2CCOCP(=O)(O)O [adefovir, reference compound] |  | about 3% | 29% |  | 
C=C1[C@H](CO)[C@@H](O)C[C@@H]1n1cnc2c(=O)[nH]c(N)nc21 [entecavir] |  |  |  | 1% | 51%

Like-named read-outs stand apart in the source and are kept apart here.
